We go through one molecule from paper PMC6721932, “Cross-reactivity of a rice NLR immune receptor to distinct effectors from the rice blast pathogen Magnaporthe oryzae provides partial disease resistance” (The Journal of Biological Chemistry, 2019).

In the assay the target is T1, Pikp–HMA (integrated heavy metal-associated domain of the rice NLR Pikp-1, residues 186–263) (rice (Oryza sativa), UniProt E9KPB5 186-263).
T1 sequence: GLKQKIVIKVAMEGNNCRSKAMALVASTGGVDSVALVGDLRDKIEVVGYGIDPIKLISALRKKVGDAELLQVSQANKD
Put plainly: SEC. As to conditions: both partners purified.

B1: AVR–Pia (residues 20–85), tags removed (natural protein)
chain: APARFCVYYDGHLPATRVLLMYVRIGTTATITARGHEFEVEAKDQNCKVILTNGKQAPDWLAAEPY
Take B1: the binding result is recorded as “binds”.
